Anti-infective test results gathered from many reports (values: NIAID ChemDB through PubChem).

Common to all: target-level tests; species: HIV-1; target: Reverse transcriptase; read by: nucleotide incorporation; endpoint: IC50

Lines come from different laboratories, so protocols vary. ICn: concentration for n% inhibition. An empty or dashed field is not shown. a–b is a range or a potency band.

smiles,changes,strain or isolate,result
CO[C@H]1/C=C/O[C@@]2(C)Oc3c(C)c(O)c4c(O)c(cc(O)c4c3C2=O)NC(=O)/C(C)=C\C=C\[C@H](C)[C@H](O)[C@@H](C)[C@@H](O)[C@@H](C)[C@H](OC(C)=O)[C@@H]1C,,,460 µM
CCc1cc(CCc2nc3c(Cl)ccc(Cl)c3o2)c(=O)[nH]c1C,RT-K103N,,0.3 µM
Cc1cc(C)nc(NC(=S)N[C@H](C)c2cccc3ccccc23)c1,,,40 µM
Oc1cccc(-c2c3nc(c(-c4cccc(O)c4)c4ccc([nH]4)c(-c4cccc(O)c4)c4nc(c(-c5cccc(O)c5)c5ccc2[nH]5)C=C4)C=C3)c1,,,5 µM
CC(C)=CCN1c2cc(Cl)ccc2NC(=O)[C@@H]1Cc1ccccc1,,,>10 µg/mL
O=C(O)CP(=O)(O)O,,,530 µM
CN(C)C(=O)/C=C/CSc1nc(N)cc(Cl)n1,,RT-WT,0.2 µM
C=C(C)OC(=O)N1c2cc(Cl)ccc2NC(=O)[C@@H]1CSC,,,0.01–0.1 µg/mL
COCc1cc2cc(OC)c(OC)cc2c(-c2ccc3c(c2)OCO3)c1C=O,,,3.5 µM
CCCCN(C)C(=O)Oc1nsnc1-c1c(Cl)cccc1Cl,,IIIB,4.5 µM
Cc1cn([C@@H]2O[C@H](CO[Si](C)(C)C(C)(C)C)C3(OS(=O)(=O)C=C3N)[C@H]2O[Si](C)(C)C(C)(C)C)c(=O)n(C)c1=O,,,0.99 µM
CC(C)Nc1cccnc1N1CCN(C(=O)c2cc3ccccc3[nH]2)CC1,,MN,1.4 µM
COc1cc2cc3c(c(-c4ccc5c(c4)OCO5)c2cc1OC)COC3=O,,,5.49 µM
CN(C)[C@@H]1C(=O)C(C(N)=O)=C(O)[C@@]2(O)C(=O)C3=C(O)c4c(O)cccc4[C@@](C)(O)[C@H]3[C@H](O)[C@@H]12,,,>2000 µM
CCCN(C)C(=O)Oc1nsnc1-c1c(Cl)cccc1Cl,,IIIB,0.53 µM
Cc1cccc2sc(NC(=S)N[C@H](C)c3cccc4ccccc34)nc12,,,10.2 µM
Cc1cccc(CSc2nc(N)cc(Cl)n2)c1,RT-P236L,,0.045 µM
CN(C)c1ccc(O)c2c1C[C@H]1C[C@H]3[C@H](N(C)C)C(=O)C(C(N)=O)=C(O)[C@@]3(O)C(=O)C1=C2O,,,1200 µM
CC(C)=CCN1Cc2cccc3[nH]c(=S)n(c23)C[C@@H]1C,,,0.24 µM
Nc1nc2c(ncn2[C@H]2CC[C@@H](COP(=O)(O)OP(=O)(O)OP(=O)(O)O)O2)c(=O)[nH]1,,,0.08 µM
CC(C)=CCN1c2cc(Cl)ccc2NC(=O)[C@@H]1C(C)C,,,1–10 µg/mL
CCCc1cccnc1N(C)C1CCN(C(=O)c2cc3cc(NS(C)(=O)=O)ccc3[nH]2)CC1,RT-P236L,IIIB,>1 µM
CCn1cc(C(=O)O)c(=O)c2ccc(C)nc21,,,1900 µM
COC(=O)C1(O)CC(O)C(OC(=O)/C=C/c2ccc(O)c(O)c2)C(OC(=O)/C=C/c2ccc(O)c(O)c2)C1,,,94 µM
COc1cc2c(ccc3c4cc(OC)c(OC)cc4c[n+](C)c23)cc1O,,,10 µg/mL
CCCC(=O)N1c2cc(Cl)ccc2NC(=O)[C@@H]1C,,,1–10 µg/mL
Fc1cccc(F)c1[C@H]1SCc2nc3ccccc3n21,,,14.2 µM
Cc1cc(=O)oc2c3c(c4c(c12)OC(C)(C)C=C4)O[C@H](C)[C@@H](C)[C@@H]3O,,,12.3 µM
Nc1ccccc1-c1c2nc(c(-c3ccccc3N)c3ccc([nH]3)c(-c3ccccc3N)c3nc(c(-c4ccccc4N)c4ccc1[nH]4)C=C3)C=C2,,,>100 µM
CCCCCCN(C)C(=O)Oc1nsnc1-c1c(Cl)cccc1Cl,,IIIB,9.5 µM
Cc1cn([C@@H]2O[C@H](CO[Si](C)(C)C(C)(C)C)C3(OS(=O)(=O)C=C3N)[C@H]2O[Si](C)(C)C(C)(C)C)c(=O)n(C)c1=O,,,4.09 µM
C=CCOC(=O)N1c2cc(Cl)ccc2NC(=O)[C@@H]1C,,,0.01–0.1 µg/mL
O=C(O)C1=C[C@@H](OC(=O)c2cc(O)c(O)c(O)c2)[C@@H](O)[C@H](OC(=O)c2cc(O)c(O)c(O)c2)C1,,,0.52 µM
CCCCNC(=O)Oc1nsnc1-c1c(Cl)cccc1Cl,RT-Y181C,IIIB-R (RT-Y181C),>200 µM
C[C@H]1C(=O)Nc2ccc(Cl)cc2N1Cc1ccccc1,,,0.01–0.1 µg/mL
C[C@H](NC(=S)Nc1nccs1)c1cccc2ccccc12,,,>100 µM
Nc1nc2c(ncn2[C@H]2CC[C@@H](COP(=O)(O)OP(=O)(O)OP(=O)(O)O)O2)c(=O)[nH]1,,,0.05 µM
CCc1cc(CCc2nc3ccccc3o2)c(=S)[nH]c1C,RT-Y181C,,5 µM
Cc1c(Sc2ccccc2)n(COCCO)c(=O)[nH]c1=O,,,49 µM
C[C@H]1c2cccc(O)c2C(O)=C2C(=O)[C@]3(O)C(O)=C(C(N)=O)C(=O)[C@@H](N(C)C)[C@@H]3[C@@H](O)[C@@H]21,,,35 µM
CC(C)=CCN1Cc2cccc3[nH]c(=O)n(c23)CC1C,,,2 µM
CC(C)=CCN1Cc2cccc3[nH]c(=S)n(c23)C[C@@H]1C,,NL4-3,0.58 µM
Cc1c(Sc2ccccc2)n(COCCO)c(=O)[nH]c1=O,RT-T139I N348K,,1 µM
Nc1ncnc2c1ncn2[C@@H]1O[C@H](COP(=O)(O)OP(=O)(O)OP(=O)(O)O)C[C@@H]1F,RT-A62V V75I F77L F116Y Q151M,,204 µM
CN(C)[C@@H]1C(=O)C(C(N)=O)=C(O)[C@@]2(O)C(=O)C3=C(O)c4c(O)ccc(Cl)c4[C@@](C)(O)C3C[C@@H]12,,,96 µM
COc1cc2c(c(OC)c1OC)-c1c(cc3c(c1OC)OCO3)C[C@H](C)[C@H](C)C2,Y188L,,95 µM
O=C(O)P(=O)(O)Oc1ccc2c(c1)CCC2,,,3.6 µM
Oc1ccc(-c2c3nc(c(-c4ccc(O)cc4)c4ccc([nH]4)c(-c4ccc(O)cc4)c4nc(c(-c5ccc(O)cc5)c5ccc2[nH]5)C=C4)C=C3)cc1,,,3 µM